Compound potency records, mixed from different reports. Data source: NIAID ChemDB in PubChem.

Common to all: tests on isolated targets; agent: HIV-1; protein: Reverse transcriptase; read-out: IC50

ICn is the concentration giving n% inhibition. a–b is a range or a potency band. Rows are shuffled and stem from different studies.

CC(C)c1nnc2c3ccccc3c(N3CCc4ccc(N)cc4C3)nn12 ; strain: 98US_MSC5016 ; method: RT activity / fluorescence ; value: 0.2 µM
CC(C)(C)c1ccc(-n2nnnc2SCC(=O)Nc2ccc(NC(=O)C3CCCCC3)cc2Cl)c(Cl)c1 ; strain: WT ; method: PicoGreen / fluorescence ; value: <1 µM
CCc1cc(CCc2nc3ccccc3o2)c(=O)[nH]c1C ; changes: RT-K103N Y181C ; method: nucleotide incorporation ; value: 22.3 µM
Cc1ccc(-n2nnnc2SCC(=O)Nc2ccc(/C=C/C(=O)O)cc2Cl)c(Cl)c1 ; changes: RT-K103 Y181C ; method: PicoGreen / fluorescence ; value: <1 µM
Cc1nnc2c3ccccc3c(N3CCC4CCCCC4C3)nn12 ; strain: KER2008 ; method: RT activity / fluorescence ; value: 3.07 µM
O=C(CSc1nnnn1-c1ccc(C2CC2)cc1Cl)Nc1ccc(C(=O)NCc2cc[n+]([O-])cc2)cc1Cl ; changes: RT-K103 Y181C ; method: PicoGreen / fluorescence ; value: <1 µM
CCOC(=O)CCNC(=O)c1ccc(NC(=O)CSc2nnc(Br)n2-c2ccc(CC)c3ccccc23)c(Cl)c1 ; changes: RT-Y181C ; method: nucleotide incorporation / radiometric ; value: <0.05 µM
CCN1c2ncc(CCOc3ccc(-c4ccc(N)c(C(=O)O)c4)cc3C)cc2C(=O)N(C)c2cccnc21 ; strain: IIIB ; method: nucleotide incorporation / radiometric ; value: <0.05 µM
CCN1c2ncc(CCOc3ccc(S(=O)(=O)NCC(=O)O)c4ccccc34)cc2C(=O)N(C)c2cccnc21 ; changes: RT-K103N Y181C ; method: nucleotide incorporation / radiometric ; value: <0.1 µM
CCc1ccc(-n2c(Br)nnc2SCC(=O)Nc2ccc(C(=O)NCC(C)O)cc2Cl)c2ccccc12 ; method: nucleotide incorporation / radiometric ; value: <0.05 µM
O=C(CSc1nnnn1-c1ccc(C2CC2)cc1Cl)Nc1ccc(C#CC2(CN3CCCC3)CC2)cc1Cl ; strain: WT ; method: PicoGreen / fluorescence ; value: <1 µM
Cc1nnc2c3c(c(N4CCc5ccccc5C4)nn12)C1CCC3CC1 ; strain: 98US_MSC5016 ; method: RT activity / fluorescence ; value: 5.98 µM
CC(C)(C#Cc1ccc(NC(=O)CSc2nnnn2-c2ccc(C3CC3)cc2Cl)c(Cl)c1)OCCN1CCCCC1 ; strain: WT ; method: PicoGreen / fluorescence ; value: <1 µM
Cc1nnc2c3ccccc3c(N3CCc4cc(O)c(O)cc4C3)nn12 ; strain: KER2008 ; method: RT activity / fluorescence ; value: 1.99 µM
NS(=O)(=O)c1ccc(NC(=O)CSc2nnc(Br)n2-c2ccc(C3CC3)c3c2CCCC3)c(Cl)c1 ; changes: RT-Y181C ; method: nucleotide incorporation / radiometric ; value: <0.05 µM
CCN1c2ncc(CCOc3ccc(-c4cc(C(=O)O)c[n+]([O-])c4)cc3C)cc2C(=O)N(C)c2cccnc21 ; strain: IIIB ; method: nucleotide incorporation / radiometric ; value: <0.05 µM
Cc1nnc2c3ccccc3c(N3CCc4ccc(N)cc4C3)nn12 ; strain: KER2008 ; method: RT activity / fluorescence ; value: 11.9 µM
CCN1c2ncc(CCOc3ccc(/C=C(\C)C(=O)O)c4ccccc34)cc2C(=O)Nc2c(C)ccnc21 ; changes: RT-V106A ; method: nucleotide incorporation / radiometric ; value: 0.1–1 µM
CC(C)(C)c1ccc(-n2nnnc2SCC(=O)Nc2ccc(NC(=O)CCc3ccccc3)cc2Cl)c(Cl)c1 ; strain: WT ; method: PicoGreen / fluorescence ; value: <1 µM
CCN1c2ncc(CCOc3ccc(/C=C/C(=O)O)c4ccccc34)cc2C(=O)Nc2c(C)ccnc21 ; changes: RT-V106A ; method: nucleotide incorporation / radiometric ; value: 0.1–1 µM
CC(=O)Nc1cc2c(cc1OC(F)(F)F)CCN(c1nn3c(C)nnc3c3ccccc13)C2 ; strain: 98US_MSC5016 ; method: RT activity / fluorescence ; value: 0.65 µM
CC(C)(C)c1ccc(-n2nnnc2SCC(=O)Nc2ccc(NC(=O)c3ccccc3)cc2Cl)c(Cl)c1 ; strain: WT ; method: PicoGreen / fluorescence ; value: <1 µM
CCN1c2ncc(CCOc3ccc(-c4cnc(C)c(C)c4)cc3C)cc2C(=O)N(C)c2cccnc21 ; strain: IIIB ; method: nucleotide incorporation / radiometric ; value: <0.05 µM
CN(C)c1ccc(CC(=O)Nc2ccc(NC(=O)CSc3nnnn3-c3ccc(C(C)(C)C)cc3Cl)c(Cl)c2)cc1 ; changes: RT-K103 Y181C ; method: PicoGreen / fluorescence ; value: <1 µM
CCN1c2ncc(CCOc3ccc4cc(CC(=O)O)ccc4c3C)cc2C(=O)N(C)c2cccnc21 ; changes: RT-Y188L ; method: nucleotide incorporation / radiometric ; value: 0.1–1 µM
CC(C)(C)c1ccc(-n2nnnc2SCC(=O)Nc2ccc(C#CCCCOC(N)=O)cc2Cl)c(Cl)c1 ; changes: RT-K103 Y181C ; method: PicoGreen / fluorescence ; value: <1 µM
CCN1c2ncc(CCOc3ccc(-n4cc(C(=O)O)nn4)cc3C)cc2C(=O)N(C)c2cccnc21 ; strain: IIIB ; method: nucleotide incorporation / radiometric ; value: <0.05 µM

The last 2 rows once more:

{"SMILES": "CC(C)(C)c1ccc(-n2nnnc2SCC(=O)Nc2ccc(C#CCCCOC(N)=O)cc2Cl)c(Cl)c1", "changes": "RT-K103 Y181C", "method": "PicoGreen / fluorescence", "value": "<1 µM"}
{"SMILES": "CCN1c2ncc(CCOc3ccc(-n4cc(C(=O)O)nn4)cc3C)cc2C(=O)N(C)c2cccnc21", "strain": "IIIB", "method": "nucleotide incorporation / radiometric", "value": "<0.05 µM"}